Compound potency records, mixed from different reports. Data source: NIAID ChemDB in PubChem.

Common to all: growth or infection tests; species: HIV-1; method: MTT; read-out: EC50

Blank or dashed fields: not listed here. ECn is the concentration giving n% inhibition of infection, replication or growth. Lines come from different laboratories, so protocols vary.

smiles	strain	changes	cells	value
O=C(/C=C/C=C/c1ccc(Br)cc1)[Se]c1ccccc1	LAI		MT-2	6.5 µM
Cc1cc(NCCc2c[nH]c3ccccc23)cc(=O)o1	IIIB		CEM	25 µM
O=C(CSc1sc(Cl)nc1-c1ccc(Br)cc1Br)Nc1ccccc1Br	IIIB		MT-4	>8.25 µM
NC(=O)C[C@H](NNC(=O)CN1CCCC(NC(=O)CCCCCCCCCCCCCCC(=O)O)C1=O)C(=O)N[C@@H](Cc1ccccc1)C(=O)O				>125 µg/mL
Cc1cc(C#N)cc(C)c1Oc1nc(NC2CCN(Cc3cccc(C(N)=O)c3)CC2)nc2sccc12	IIIB	NNRTI-resistant (RT Y181C)	MT-4	0.00919 µM
Cc1cc(/C=C/c2ccccc2)cc(C)c1Oc1ccnc(Nc2ccc(C#N)cc2)n1	IIIB	Y181C	MT-4	0.273 µM
COc1ccc2c(c1)C1=NCCCN1C(=N)S2	IIIB		MT-4	5.3 µM
O=S1(=O)N=C(Nc2ccc(F)cc2)C=C(Cc2cccc3ccccc23)N1	IIIB		MT-4	32 µM
Cc1cc(N(Cc2cccc3ccccc23)C(=O)C(Cl)Cl)cc(=O)o1	IIIB		CEM	≥10 µM
O=S1(=O)N=C(Nc2ccc(F)cc2)C=C(Cc2ccccc2)N1	IIIB		MT-4	>255 µM
Cc1c(Cc2cccc3ccccc23)nc(SCc2cn(Cc3ccccc3C#N)nn2)[nH]c1=O	IIIB			>123 µM
Nc1nc(NC2CC2)c2ncn([C@H]3C=C[C@@H](CO)C3)c2n1	LAI		MT-2	2.6 µM
C#Cc1ccc(Nc2nccc(Oc3c(C)cc(-c4cn(Cc5cccc(C(=O)OC)c5)nn4)cc3C)n2)cc1	IIIB	Y181C	MT-4	>4.78 µM
CC(C)Nc1cccnc1N1CCN(C(=O)c2cc3cc(NS(C)(=O)=O)ccc3[nH]2)CC1	RES056		MT-4	>36 µM
Cc1cc(C#N)cc(C)c1Oc1nc(Nc2ccc(C#N)cc2)nc(N)c1Br	RES056		MT-4	0.016 µM
Cc1cn([C@H]2C[C@H](N=[N+]=[N-])[C@@H](CO)O2)c(=O)[nH]c1=O	IIIB	F227L + V106A	MT-4	0.004 µM
COc1ccc(CN=C2C=C(Cc3ccc4ccccc4c3)NS(=O)(=O)N2)cc1	IIIB		MT-4	>148 µM
Cc1cc(C#Cc2cccnc2)cc(C)c1Oc1ccnc(Nc2ccc(C#N)cc2)n1	IIIB		MT-4	0.003 µM
CC[C@H](C)[C@H](NNC(=O)C1COC2CC[C@H](NC(=O)CCCCCCCCCCCCCCCC(=O)O)C(=O)N21)C(=O)N[C@@H](Cc1ccccc1)C(N)=O				>125 µg/mL
Cc1cn([C@H]2C[C@H](N=[N+]=[N-])[C@@H](CO)O2)c(=O)[nH]c1=O	IIIB		MT-4	0.02 µg/mL
N#Cc1ccc(Nc2nc(Oc3c(Cl)cc(Cl)cc3Cl)ncc2[N+](=O)[O-])cc1	IIIB		MT-4	7.4 µM
Cc1cc(C#Cc2ccccn2)cc(C)c1Oc1ccnc(Nc2ccc(C#N)cc2)n1	IIIB		MT-4	0.006 µM
Cc1cc(C)cc(C(=O)c2cccnc2Nc2ccncc2)c1	IIIB		MT-4	>32.34 µM
COc1cc(/C=C/C(=O)[Se]c2ccccc2)ccc1O	LAI		MT-2	3.3 µM
Cc1cc(C#N)cc(C)c1Oc1nc(Nc2ccc(C#N)cc2)nc(N)c1Br	IIIB	NNRTI-resistant (RT Y188L)	MT-4	0.0205 µM
Cc1cc(C#N)cc(C)c1Oc1ncc([N+](=O)[O-])c(Nc2ccc(C#N)cc2)n1	IIIB		MT-4	0.062 µM
N=C1Sc2cc(-c3ccsc3)ccc2C2=NCCCN12	IIIB		MT-4	0.43 µM
O=c1ccc2ccccc2[se]1	LAI		MT-2	>100 µM
Cc1cn([C@H]2C[C@H](N=[N+]=[N-])[C@@H](CO)O2)c(=O)[nH]c1=O	ADP144 (RT-L74V)	RT-L74V	MT-4	0.0001 µg/mL
Cc1cc(C)cc(C(=O)c2cccnc2Oc2ccccc2)c1	IIIB		MT-4	≥2.51 µM
COc1ccc(CN=C2C=C(Cc3ccccc3)NS(=O)(=O)N2)cc1	IIIB		MT-4	>300 µM
CC(C)Nc1cccnc1N1CCN(C(=O)c2cc3cc(NS(C)(=O)=O)ccc3[nH]2)CC1	IIIB	L100I	MT-4	2.23 µM
CCc1c(SCc2cccc3ccccc23)cc(C)oc1=O	IIIB		CEM	>10 µM
Cc1cc([N+](=O)[O-])ccc1NC(=O)CSc1sc(Cl)nc1-c1ccc(Br)cc1Br	IIIB	K103N	MT-4	38.95 µM
Cc1cc(C#Cc2cccc(N)c2)cc(C)c1Oc1ccnc(NC2CCN(Cc3ccc(C(N)=O)cc3)CC2)n1	IIIB	F227L + V106A	MT-4	>0.198 µM
Cc1ccc2c(c1)C1=NCCCN1C(=N)S2	IIIB		MT-4	2.1 µM
Cc1cc(C)cc(C(=O)c2cccnc2Oc2ccc(C#N)cc2)c1	IIIB		MT-4	12.99 µM
Cc1cc(C#N)cc(C)c1Oc1nc(NC2CCC(NCc3ccc(Br)cc3)CC2)nc2ccsc12	IIIB	NNRTI-resistant (RT L100I)	MT-4	≥1.4 µM
O=S1(=O)NC(Cc2ccccc2)=CC(=NCCc2ccccc2)N1	IIIB		MT-4	>192 µM
N=C1Sc2ccc(-c3ccccc3)cc2C2=NCCCN12	IIIB		MT-4	2.2 µM
C#Cc1ccc(Nc2nccc(Oc3c(C)cc(-c4cn(CCC(=O)OC)nn4)cc3C)n2)cc1	RES056		MT-4	>23.76 µM
Cc1ccnc2c1NC(=O)c1cccnc1N2C1CC1	IIIB	F227L + V106A	MT-4	3.538 µM
CC(=O)c1ccc(Nc2ncccc2C(=O)c2cc(C)cc(C)c2)cc1	IIIB		MT-4	>34.78 µM
Cc1c(Cc2c(Cl)cccc2Cl)nc(SCc2cn(Cc3ccc(S(N)(=O)=O)cc3)nn2)[nH]c1=O	RES056			>95.49 µM
Nc1nc(-c2ccc(Br)cc2Br)c(SCC(=O)Nc2ccccc2F)s1	IIIB		MT-4	>24.94 µM
Cc1cccc(C)c1Oc1ccnc(Nc2ccc(C#N)cc2)n1	IIIB	F227L + V106A	MT-4	≥1.37 µM
Cc1ccnc2c1NC(=O)c1cccnc1N2C1CC1	IIIB	Y188L	MT-4	>15.9 µM
O=S1(=O)N=C(Nc2ccccc2Cl)C=C(Cc2ccccc2)N1	IIIB		MT-4	>182 µM
Cc1cc(S(=O)(=O)CCc2cccc3ccccc23)cc(=O)o1	IIIB		CEM	>2 µM
C#Cc1ccc(Nc2nccc(Oc3c(C)cc(-c4cn(Cc5ccccc5)nn4)cc3C)n2)cc1	IIIB		MT-4	0.049 µM
Cc1cn([C@H]2C[C@H](N=[N+]=[N-])[C@@H](CO)O2)c(=O)[nH]c1=O	IIIB	NNRTI-resistant (RT Y181C)	MT-4	0.00668 µM
Cc1cc(-c2ccc(C#N)cc2)cc(C)c1Oc1nc(Nc2ccc(C#N)cc2)nc2ccsc12	IIIB	Y188L	MT-4	0.0507 µM
Cc1ccnc2c1NC(=O)c1cccnc1N2C1CC1	IIIB	E138K	MT-4	0.18 µM
O=C(/C=C/C=C/c1ccc([N+](=O)[O-])cc1)[Se]c1ccccc1	LAI		MT-2	6.7 µM
Cc1cc(C#N)cc(C)c1Oc1nc(Nc2ccc(C#N)cc2)nc(N)c1Br	IIIB	E138K	MT-4	0.008 µM
O=c1[nH]c(SCc2cn(Cc3ccccc3)nn2)nc(Cc2c(Cl)cccc2Cl)c1I	IIIB			>120 µM
C=C(C#N)c1cc(C)c(Oc2ccnc(Nc3ccc(CN4CCN(S(C)(=O)=O)CC4)cc3)n2)c(C)c1	IIIB	E138K	MT-4	0.0075 µM
N#Cc1ccc(Nc2nc(Oc3ccc(-c4ccc(C#N)cc4)cc3[N+](=O)[O-])c3sccc3n2)cc1	IIIB	L100I	MT-4	0.018 µM
C#Cc1ccc(Nc2nccc(Oc3c(C)cc(-c4cn(-c5ccc(C(=O)OC)cc5)nn4)cc3C)n2)cc1	IIIB	F227L and V106A	MT-4	>242 µM
Cc1cc(C=O)cc(C)c1Oc1ncc(NC(=O)C(F)(F)F)c(Nc2ccc(C#N)cc2)n1	IIIB		MT-4	0.48 µM
Cc1cc(N[C@H](C)c2cccc3ccccc23)cc(=O)o1	IIIB		CEM	>10 µM
O=c1[nH]cnc2c1ncn2[C@H]1CC[C@@H](CO)O1	IIIB		MT-4	8.86 µM
NC(=O)c1ccc(Cn2cc(CSc3nc(Cc4cccc5ccccc45)cc(=O)[nH]3)nn2)cc1	IIIB			>105 µM
N=C1Sc2cc(-c3ccc4c(c3)OCCO4)ccc2C2=NCCCN12	IIIB		MT-4	2.6 µM
O=c1[nH]c(SCc2cn(Cc3ccc(F)cc3)nn2)nc(Cc2c(Cl)cccc2Cl)c1I	RES056			>92.05 µM
N#Cc1ccc(Nc2nc(Oc3c(Cl)cccc3Cl)ncc2[N+](=O)[O-])cc1	RES056		MT-4	>206 µM
CC(=O)c1ccc(C)cc1NC(C(N)=O)c1c(Cl)cccc1Cl	13MB1 (TIBO-resistant RT L100I)	RT-L100I	MT-4	0.007 µg/mL
Cc1cc(C)cc(C(=O)c2cccnc2Nc2ccc(CC#N)cc2)c1	IIIB		MT-4	>97.48 µM
Cc1cc(C#Cc2ccc(N)cc2)cc(C)c1Oc1ccnc(Nc2ccc(C#N)cc2)n1	IIIB	E138K	MT-4	0.101 µM
C=Cc1ccc2c(c1)SC(=N)N1CCCN=C21	IIIB		MT-4	4.6 µM
Cc1cc(NCCc2c[nH]c3ccccc23)c(C(=O)C(Cl)Cl)c(=O)o1	IIIB		CEM	≥2 µM
COc1ccc(Cn2cc(CSc3nc(Cc4cccc5ccccc45)c(C)c(=O)[nH]3)nn2)cc1	IIIB			>26.53 µM
N#Cc1ccc(Nc2nc(Oc3ccc(-c4ccc(C#N)cc4)c(Cl)c3)c3sccc3n2)cc1	IIIB		MT-4	0.2296 µM
Cc1cc(NCc2ccccc2)c(C(=O)C(Cl)Cl)c(=O)o1	IIIB		CEM	>2 µM
CC(C)=CCN1Cc2cc(Cl)cc3[nH]c(=S)n(c23)C[C@@H]1C	ADP144 (RT-L74V)	RT-L74V	MT-4	0.0004 µg/mL
Nc1nc(-c2ccc(Br)cc2Br)c(SCC(=O)Nc2ccccc2Cl)s1	IIIB		MT-4	>23.67 µM
O=c1[nH]cnc2c1ncn2[C@H]1CC[C@@H](CO)O1	13MB1 (TIBO-resistant RT L100I)	RT-L100I	MT-4	0.4 µg/mL
N=C1Sc2cc(-c3ccccc3-c3ccccc3)ccc2C2=NCCCN12	IIIB		MT-4	0.89 µM

The first 8 rows once more:

smiles | strain | changes | cells | value
O=C(/C=C/C=C/c1ccc(Br)cc1)[Se]c1ccccc1 | LAI |  | MT-2 | 6.5 µM
Cc1cc(NCCc2c[nH]c3ccccc23)cc(=O)o1 | IIIB |  | CEM | 25 µM
O=C(CSc1sc(Cl)nc1-c1ccc(Br)cc1Br)Nc1ccccc1Br | IIIB |  | MT-4 | >8.25 µM
NC(=O)C[C@H](NNC(=O)CN1CCCC(NC(=O)CCCCCCCCCCCCCCC(=O)O)C1=O)C(=O)N[C@@H](Cc1ccccc1)C(=O)O |  |  |  | >125 µg/mL
Cc1cc(C#N)cc(C)c1Oc1nc(NC2CCN(Cc3cccc(C(N)=O)c3)CC2)nc2sccc12 | IIIB | NNRTI-resistant (RT Y181C) | MT-4 | 0.00919 µM
Cc1cc(/C=C/c2ccccc2)cc(C)c1Oc1ccnc(Nc2ccc(C#N)cc2)n1 | IIIB | Y181C | MT-4 | 0.273 µM
COc1ccc2c(c1)C1=NCCCN1C(=N)S2 | IIIB |  | MT-4 | 5.3 µM
O=S1(=O)N=C(Nc2ccc(F)cc2)C=C(Cc2cccc3ccccc23)N1 | IIIB |  | MT-4 | 32 µM